Results of unrelated studies side by side (data: NIAID ChemDB).

Shared fields: enzyme or target tests; agent: Hepatitis C virus; target: Nonstructural protein 5B; endpoint: IC50

Two numbers with a dash give a range or band.

smiles,strain,method,value
O=C1CC(=O)OC(CCc2ccc(C(=O)N3CCC(O)CC3)cc2)(C2CCCC2)C1,,,>50 µM
O=C(O)c1ccc(N2C(=O)C(=Cc3ccc(-c4cccc(C(F)(F)F)c4)o3)SC2=S)cc1,,,≤1 µM
COc1c(-c2ccc3cc(NS(C)(=O)=O)ccc3c2)cc(-n2ccc(=O)[nH]c2=O)cc1C(C)(C)C,GT 4a#2,nucleotide incorporation,3.7 µM
CC(=O)C1C(=O)CC(CCc2cccc(Cl)c2)(C2CCCC2)OC1=O,,,10–50 µM
CC(C)(C)c1cccc(Oc2cccc(-c3ccc(C=C4SC(=S)N(CC(=O)O)C4=O)o3)c2)c1,,,≤1 µM
CNC(=O)c1c(-c2ccc(F)cc2)oc2cc(-c3cccnc3)c(OC)cc12,,,≤0.5 µM
Cc1cc(OS(=O)(=O)c2cn(C)cn2)c(C(C)(C)C)c(SC2=C(O)CC(C3CCCC3)(C3CCCC3)OC2=O)c1,,,10–50 µM
O=C(O)CCN1C(=O)C(=Cc2ccc(C#Cc3ccccc3)o2)SC1=S,,,≤1 µM
CC(C)(C)c1cc2nc(N)sc2cc1SC1=C(O)CC(C2CCCC2)(C2CCCC2)OC1=O,,,10–50 µM
Cc1cc(C)cc(-c2ccc(C=C3SC(=S)N(CCC(=O)O)C3=O)o2)c1,,,≤1 µM
CNC(=O)c1c(-c2ccc(F)cc2)oc2c(C)cc(OC)cc12,,,≤0.5 µM
CCCN(C1=C(O)CC(CCc2ccc(O)cc2)(C2CCCC2)OC1=O)c1ccccc1,,,1–10 µM
CNC(=O)c1c(-c2ccc(F)cc2)oc2cc(N3CCOCC3)c(OCCC#N)cc12,,,≤0.5 µM
O=C(O)c1ccc(N2C(=O)C(=Cc3ccc(-c4ccc(C(F)(F)F)cn4)o3)SC2=S)cc1,,,≤1 µM
CNC(=O)c1c(-c2ccc(F)cc2)oc2cc(N(C)S(C)(=O)=O)c(OCCn3cccn3)cc12,,,≤0.5 µM
O=C(O)c1ccc(N2C(=O)C(=Cc3ccc(-c4cc([N+](=O)[O-])ccc4Cl)o3)SC2=S)cc1,,,≤1 µM
CCc1cc2c(C(=O)NC)c(-c3ccc(F)cc3)oc2cc1NS(C)(=O)=O,,,≤0.5 µM
COc1ccc(CCC2(C3CCCC3)CC(O)=C(Sc3ncn[nH]3)C(=O)O2)cc1Cl,,,<1 µM

Again, the opening 2 rows:

| smiles | strain | method | value |
|---|---|---|---|
| O=C1CC(=O)OC(CCc2ccc(C(=O)N3CCC(O)CC3)cc2)(C2CCCC2)C1 |  |  | >50 µM |
| O=C(O)c1ccc(N2C(=O)C(=Cc3ccc(-c4cccc(C(F)(F)F)c4)o3)SC2=S)cc1 |  |  | ≤1 µM |

ICn: concentration for n% inhibition. Lines come from different laboratories, so protocols vary. An empty or dashed field is not shown.